Pooled drug test results. Numbers come from NIAID ChemDB, via PubChem.

Shared fields: tests in culture; species: HIV-2; cell line: MT-4; endpoint: EC50

ECn is the concentration giving n% inhibition of infection, replication or growth. Rows are shuffled and stem from different studies.

SMILES,strain,method,result
N#Cc1ccccc1CN1CCC(N=C2C=C(Cc3ccc(Cl)cc3Cl)NS(=O)(=O)N2)CC1,ROD,MTT,>121 µM
Cc1cn([C@@H]2O[C@H](CO[Si](C)(C)C(C)(C)C)C3(OS(=O)(=O)C=C3N)[C@H]2O)c(=O)[nH]c1=O,ROD,syncytia,>40 µM
COc1ccc(CN2CCC(N=C3C=C(Cc4cccc5ccccc45)NS(=O)(=O)N3)CC2)cc1,ROD,MTT,>119 µM
Cc1ccnc2c1NC(=O)c1cccnc1N2C1CC1,ROD,MTT,>15 µM
Cc1cn([C@H]2C[C@H](N=[N+]=[N-])[C@@H](COC(=O)CCC(=O)OC[C@H]3O[C@@H]4O[C@H]5[C@H](O)[C@@H](O)[C@@H](O[C@H]6[C@H](O)[C@@H](O)[C@@H](O[C@H]7[C@H](O)[C@@H](O)[C@@H](O[C@H]8[C@H](O)[C@@H](O)[C@@H](O[C@H]9[C@H](O)[C@@H](O)[C@@H](O[C@H]%10[C@H](O)[C@@H](O)[C@@H](O[C@H]3[C@H](O)[C@H]4O)O[C@@H]%10CO)O[C@@H]9CO)O[C@@H]8CO)O[C@@H]7CO)O[C@@H]6CO)O[C@@H]5CO)O2)c(=O)[nH]c1=O,ROD,cytopathic effect / MTT,0.127 µg/mL
O=C([O-])c1c[nH]c2ccc(Cc3ccccc3)cc2c1=O.O=C([O-])c1c[nH]c2ccc(Cc3ccccc3)cc2c1=O.[Mg+2],ROD,MTT,>17 µM
Cc1cn([C@@H]2O[C@H](COCc3ccccc3)C3(OS(=O)(=O)C=C3NC(=O)c3ccccc3)[C@H]2OC(=O)c2ccccc2)c(=O)[nH]c1=O,ROD,syncytia,>40 µM
Cc1cn([C@@H]2O[C@H](CO[Si](C)(C)C(C)(C)C)C3(OS(=O)(=O)C=C3N)[C@H]2O[Si](C)(C)C(C)(C)C)c(=O)n(CCOC(=O)[C@@H](N)C(C)C)c1=O,ROD,cytopathic effect / trypan blue,>10 µM
CC(=O)c1ccc(CN2CCC(N=C3C=C(Cc4ccc(Cl)cc4Cl)NS(=O)(=O)N3)CC2)cc1,ROD,MTT,>99.45 µM
O=C(O)c1c[nH]c2ccc(Cc3ccccc3)cc2c1=O,ROD,MTT,>19 µM
Cc1cn([C@H]2C[C@H](N=[N+]=[N-])[C@@H](COC(=O)CCC(=O)OC[C@H]3O[C@@H]4O[C@H]5[C@H](O)[C@@H](O)[C@@H](O[C@H]6[C@H](O)[C@@H](O)[C@@H](O[C@H]7[C@H](O)[C@@H](O)[C@@H](O[C@H]8[C@H](O)[C@@H](O)[C@@H](O[C@H]9[C@H](O)[C@@H](O)[C@@H](O[C@H]3[C@H](O)[C@H]4O)O[C@@H]9CO)O[C@@H]8CO)O[C@@H]7CO)O[C@@H]6CO)O[C@@H]5CO)O2)c(=O)[nH]c1=O,ROD,cytopathic effect / MTT,0.034 µg/mL
O=S1(=O)NC(Cc2ccc(Cl)cc2Cl)=CC(=NC2CCN(Cc3ccc(Br)cc3)CC2)N1,ROD,MTT,>97.9 µM
c1cc(CN2CCCNCCNCCCNCC2)ccc1CN1CCCNCCNCCCNCC1,EHO,cytopathic effect / MTT,0.004 µg/mL
COc1ccc(CN[C@@H](C(=O)N[C@H]2c3ccccc3C[C@H]2O)[C@H](O)[C@H](Cc2ccccc2)NC(=O)[C@@H](NC(=O)OCc2ccccc2)C(C)(C)C)cc1,EHO,p24,0.24 µM
CC(C)c1nc(C(=O)NCc2ccc(F)cc2)c([O-])c(=O)n1C.CC(C)c1nc(C(=O)NCc2ccc(F)cc2)c([O-])c(=O)n1C.[Mg+2],ROD,MTT,0.026 µM
Cc1cn([C@@H]2O[C@H](CO[Si](C)(C)C(C)(C)C(C)C)C3(OS(=O)(=O)C=C3N)[C@H]2O[Si](C)(C)C(C)(C)C)c(=O)n(C)c1=O,ROD,syncytia,>6 µM
Cc1ccccc1CN1CCC(N=C2C=C(Cc3ccc(Cl)cc3Cl)NS(=O)(=O)N2)CC1,ROD,MTT,>107 µM
Cc1cn([C@@H]2O[C@H](CO[Si](C)(C)C(C)(C)C)C3(OS(=O)(=O)C=C3N)[C@H]2O[Si](C)(C)C(C)(C)C)c(=O)n(CC(=O)N[C@@H](CC(=O)O)C(=O)O)c1=O,ROD,cytopathic effect / trypan blue,145 µM
O=C([O-])c1cn(CCO)c2ccc(Cc3ccccc3)cc2c1=O.O=C([O-])c1cn(CCO)c2ccc(Cc3ccccc3)cc2c1=O.[Mg+2],ROD,MTT,>36 µM
CC(=O)c1ccc(CN2CCC(N=C3C=C(Cc4cccc5ccccc45)NS(=O)(=O)N3)CC2)cc1,ROD,MTT,>106 µM
Cc1cn([C@@H]2O[C@H](CO[Si](c3ccccc3)(c3ccccc3)C(C)(C)C)C3(OS(=O)(=O)C=C3N)[C@H]2O[Si](C)(C)C(C)(C)C)c(=O)n(C)c1=O,ROD,syncytia,>30 µM
Cc1cn([C@H]2C[C@H](N=[N+]=[N-])[C@@H](CO)O2)c(=O)[nH]c1=O,ROD,MTT,0.0067 µM
Cc1cn([C@H]2C[C@H](N=[N+]=[N-])[C@@H](COC(=O)CCC(=O)OCC3OC4OC5C(COS(=O)(=O)O)OC(OC6C(COS(=O)(=O)O)OC(OC7C(COS(=O)(=O)O)OC(OC8C(COS(=O)(=O)O)OC(OC9C(COS(=O)(=O)O)OC(OC3C(OS(=O)(=O)O)C4OS(=O)(=O)O)C(OS(=O)(=O)O)C9OS(=O)(=O)O)C(OS(=O)(=O)O)C8OS(=O)(=O)O)C(OS(=O)(=O)O)C7OS(=O)(=O)O)C(OS(=O)(=O)O)C6OS(=O)(=O)O)C(OS(=O)(=O)O)C5OS(=O)(=O)O)O2)c(=O)[nH]c1=O,ROD,cytopathic effect / MTT,3.69 µg/mL
O=S1(=O)NC(Cc2ccc(Cl)cc2Cl)=CC(=NC2CCN(Cc3ccc(F)cc3)CC2)N1,ROD,MTT,>103 µM
Cc1cn([C@@H]2O[C@H](CO[Si](C)(C)C(C)(C)C)C3(OS(=O)(=O)C=C3N)[C@H]2O[Si](C)(C)C(C)(C)C)c(=O)n(CC(=O)N[C@@H](C)C(=O)OCc2ccccc2)c1=O,ROD,cytopathic effect / trypan blue,>250 µM

2 of the rows above, restated:

O=C(O)c1c[nH]c2ccc(Cc3ccccc3)cc2c1=O ; strain: ROD ; method: MTT ; result: >19 µM
COc1ccc(CN[C@@H](C(=O)N[C@H]2c3ccccc3C[C@H]2O)[C@H](O)[C@H](Cc2ccccc2)NC(=O)[C@@H](NC(=O)OCc2ccccc2)C(C)(C)C)cc1 ; strain: EHO ; method: p24 ; result: 0.24 µM